Measured values from several laboratories, pooled; numbers as filed in NIAID ChemDB.

Common to all: whole-cell or culture tests; species: Cryptococcus neoformans; read-out: EC50

Blank or dashed fields: not listed here.

compound,strain or isolate,read by,result
CC(C(=O)O)N1C(=O)CSC1c1ccccc1,,broth dilution,43.28 µM
CCCCc1ccc(C(=O)Oc2c(OC)cc3ccnc4c3c2N(C)C=C4)cc1,,,1.5 µg/mL
O=C(O)C(Cc1ccccc1)N1C(=O)CCSC1c1ccccc1,,broth dilution,47.09 µM
COc1cc2ccnc3c2c(c1O)N(C)C=C3,,,>15 µg/mL
COc1ccccc1C1SCC(=O)N1C(Cc1ccccc1)C(=O)O,,broth dilution,48.05 µM
COc1ccc2[nH+]c3c4ccccc4n(CCCCCC4CCCCC4)c3cc2c1,ATCC 90113,,>50 µg/mL
CCN(CC)C(=O)Oc1c(OC)cc2ccnc3c2c1N(C)C=C3,,,>15 µg/mL
CCCCCOc1ccc(-c2cc(-c3ccc(C(=O)N[C@H]4C[C@@H](O)[C@@H](O)NC(=O)[C@@H]5[C@@H](O)[C@@H](C)CN5C(=O)[C@H]([C@H](O)CC(N)=O)NC(=O)[C@H]([C@H](O)[C@@H](O)c5ccc(O)c(OS(=O)(=O)O)c5)NC(=O)[C@@H]5C[C@@H](O)CN5C(=O)[C@H]([C@@H](C)O)NC4=O)cc3)no2)cc1,H99,broth dilution,>2 µg/mL
COc1cc2ccnc3c2c(c1OC(=O)c1ccc(C#N)cc1)N(C)C=C3,,,>15 µg/mL
O/N=C/c1cccc[n+]1Cc1csc2ccccc12.[Cl-],,broth dilution,>20 µg/mL
COc1ccccc1C1SCC(=O)N1C(C)C(=O)O,,broth dilution,21.17 µM
COc1ccc2c(c1)cc1c(c3ccccc3n1C)[n+]2C,ATCC 90113,,4.3 µg/mL
COc1cc2ccnc3c2c(c1OC(=O)CSc1ccccc1)N(C)C=C3,,,>15 µg/mL
COc1ccccc1C1SC(C)C(=O)N1C(Cc1ccccc1)C(=O)O,,broth dilution,82.64 µM
NC(=O)c1cc[n+](Cc2ccc(C[n+]3ccc(/C=N/O)cc3)s2)cc1.[Cl-].[Cl-],,broth dilution,>20 µg/mL
CC(C(=O)O)N1C(=O)CSC1c1ccc(Cl)cc1,,broth dilution,33.91 µM
O/N=C/c1cc[n+](Cc2ccc(C[n+]3ccc(/C=N/O)cc3)s2)cc1.[Cl-].[Cl-],,broth dilution,>20 µg/mL
COc1cc2ccnc3c2c(c1OC(=O)c1ccc(C)cc1)N(C)C=C3,,,10 µg/mL
CC(C(O)(Cn1cncn1)c1ccc(F)cc1F)S(C)(=O)=O,R715 (AZOLE-R),,3.5 µM
NC(=O)c1cc[n+](CCC[n+]2cccc(/C=N/O)c2)cc1.[Br-].[Br-],,broth dilution,>20 µg/mL
Fc1ccc2[nH+]c3c4ccccc4n(CCCCCC4CCCCC4)c3cc2c1,ATCC 90113,,>50 µg/mL
O=C(O)CN1C(=O)CSC1c1c(Cl)cccc1Cl,,broth dilution,52.91 µM
COc1cc2ccnc3c2c(c1OC(=O)c1ccc(CCl)cc1)N(C)C=C3,,,>15 µg/mL
Cn1c2ccccc2c2nc3ccccc3cc21,ATCC 90113,,62.5 µg/mL
CC(C(=O)O)N1C(=O)CCSC1c1ccccc1,,broth dilution,23.7 µM
Cn1c2ccccc2c2c1cc1cc(Br)ccc1[n+]2CCCCCc1ccccc1,ATCC 90113,,1.3 µg/mL
CCc1cc(C(C)(C)C)nc2c(NC(C)CCCN)cc(OC)c(Oc3cccc(C(F)(F)F)c3)c12,,,3.5 µg/mL
NC(=O)c1cc[n+](Cc2ccc(C[n+]3ccc(C(N)=O)cc3)o2)cc1.[Br-].[Br-],,broth dilution,>20 µg/mL

4 of the rows above, restated:

compound | strain or isolate | read by | result
CCCCc1ccc(C(=O)Oc2c(OC)cc3ccnc4c3c2N(C)C=C4)cc1 |  |  | 1.5 µg/mL
O/N=C/c1cc[n+](Cc2ccc(C[n+]3ccc(/C=N/O)cc3)s2)cc1.[Cl-].[Cl-] |  | broth dilution | >20 µg/mL
COc1cc2ccnc3c2c(c1OC(=O)c1ccc(C#N)cc1)N(C)C=C3 |  |  | >15 µg/mL
NC(=O)c1cc[n+](Cc2ccc(C[n+]3ccc(C(N)=O)cc3)o2)cc1.[Br-].[Br-] |  | broth dilution | >20 µg/mL

ECn is the concentration giving n% inhibition of infection, replication or growth. Conditions beyond the fields shown may differ between rows.